Data as given in publication PMC12153356, “An antisense oligomer conjugate with unpredicted bactericidal activity against Fusobacterium nucleatum” (mBio, 2025).

Test system: FNN23 transcriptome
Test: RNA-seq transcriptomic response to CPP-PNA treatment
Assay type: cell-based, Fusobacterium nucleatum subsp. nucleatum ATCC 23726
Details: for Significant transcript changes vs water control: 30 min, log2 fold change < −1.5 or > 1.5, FDR ≤0.01

| Substance | σE regulon (KEGG gene set enrichment) (FNN23, 10 µM FUS79 vs PNAscr, 16 h) | Significant transcript changes vs water control (FNN23, 10 µM) | Differentially expressed transcripts, FUS79 vs PNAscr (FNN23, 10 µM, 16 h, 1 × 10^6 CFU per mL in MHB, log2 fold change <−1.5 or >1.5, FDR ≤0.01, three biological replicates) |
| --- | --- | --- | --- |
| (RXR)4XB-GACATAATTGT [FUS79, non-targeting (RXR)4XB-PNA 11-mer control, (RXR)4XB-…] | strongly upregulated | do not induce significant changes | 82 |
| RXRRXRRXRRXRXB [PNAscr] | – | do not induce significant changes | – |
